This passage reports IC50 results from BindingDB's records for 17951059.

Protein sequences, listed by entry. Tags and fused reporters are not part of them. Residues count along the entry.
UniProt Q45894, 1-425: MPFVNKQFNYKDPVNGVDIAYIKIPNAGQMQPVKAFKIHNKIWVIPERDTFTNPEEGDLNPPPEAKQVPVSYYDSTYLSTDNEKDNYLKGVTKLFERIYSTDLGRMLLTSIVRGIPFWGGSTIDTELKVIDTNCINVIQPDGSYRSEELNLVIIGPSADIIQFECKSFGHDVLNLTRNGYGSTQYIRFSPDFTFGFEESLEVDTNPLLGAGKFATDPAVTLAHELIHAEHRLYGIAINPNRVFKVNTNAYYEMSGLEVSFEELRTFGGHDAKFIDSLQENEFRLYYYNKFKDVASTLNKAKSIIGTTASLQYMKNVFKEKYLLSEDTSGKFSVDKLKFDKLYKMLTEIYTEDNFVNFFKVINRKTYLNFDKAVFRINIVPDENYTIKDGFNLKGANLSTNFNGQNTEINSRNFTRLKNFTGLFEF

For orientation: IC50 means the concentration that inhibits the measured activity by half. Higher therefore signals weaker potency in that assay.

For the test, the target named is Botulinum neurotoxin type A2 [1-425] (Clostridium botulinum, UniProt Q45894). As to conditions: pH 7.4.
With `O=C(/C=C/c1ccc(Cl)cc1C(F)(F)F)NO`, the midpoint of inhibition, the IC50, lay at 600 nM. Next, `O=C(/C=C/c1ccc(Cl)cc1Br)NO`: 700 nM; `COc1cc(Cl)ccc1/C=C/C(=O)NO`: 9000 nM. Next, `O=C(/C=C/c1ccc(Cl)cc1[N+](=O)[O-])NO`: 2000 nM. The compound `O=C(/C=C/c1ccc(Cl)cc1)NO` came in with a half-maximal inhibitory concentration (IC50) of 15000 nM. On to `Cc1cc(Cl)ccc1/C=C/C(=O)NO`, for which the IC50 is 800 nM.
